# Experimental data reported in PubChem BioAssay AID602481 (Broad Institute, 2012).
# The entries are a selection whose mix differs from that of the whole data set. Some structures show a salt or complex split into parts, the way the source records it. Activity calls are given as the source filed them. Cut-off read from the data, not from the text of the source: active = inhibition above about 40%; inconclusive = no clear call, values can overlap the other calls; inactive = below that.
# Tested on: 7,8-diaminopelargonic acid synthase BioA (Mycobacterium tuberculosis)
# Experiment: M. tuberculosis BioA enzyme inhibitors, primary screen, biochemical, plate reader, single point, HTS (AID 602481)
# Details: purified M. tuberculosis BioA enzyme, at 9.99 µM, active compounds read high
row,Structure (SMILES),inhibition
1,Cc1ccccc1NP(C)(=O)Nc1ccccc1C,inactive: -1.84%
2,CCOP(C)(=S)SCC(=O)NC(C)(CC)C(=O)O (stereo not drawn),inactive: -2.13%
3,O=C(OCCN1CCN(CCOCc2ccccc2)CC1)C(O)(c1ccccc1)c1ccccc1,inactive: -1.75%
4,COc1ccc2c(c1O)-c1c(O)c(OC)cc3c1[C@H](C2)[N+](C)(C)CC3.O=[N+]([O-])c1cc([N+](=O)[O-])c([O-])c([N+](=O)[O-])c1[O-],inactive: -0.748%
5,O=[N+]([O-])c1cc([N+](=O)[O-])c(Nc2ccc(Cl)cc2)c([N+](=O)[O-])c1,inactive: 1.21%
6,CP(=O)(Nc1ccccc1F)Oc1ccccc1 (stereo not drawn),inactive: -3.83%
7,Cc1c([N+](=O)[O-])cc([N+](=O)[O-])c(Br)c1[N+](=O)[O-],inactive: -0.621%
8,CCN(CC)CCCOC(=O)C(O)(c1ccccc1)C1CCCCC1 (stereo not drawn),inactive: -3.04%
9,CP(=O)(Nc1ccccc1)Oc1ccc(F)cc1 (stereo not drawn),inactive: -1.53%
10,CCCCCOc1ccc(NP(C)(=O)Oc2ccc(Cl)cc2Cl)cc1 (stereo not drawn),inactive: 0.671%
11,O=[N+]([O-])c1cc([N+](=O)[O-])c(OC2CCCCC2O)c([N+](=O)[O-])c1 (stereo not drawn),inactive: -2.73%
12,CCOC(=O)c1ccc(NP(C)(=O)Oc2ccc(F)cc2)cc1 (stereo not drawn),inactive: 5.39%
13,CC1=NCCc2c1[nH]c1ccccc21.O=[N+]([O-])c1cc([N+](=O)[O-])c(O)c([N+](=O)[O-])c1,inactive: -1.66%
14,O=C(O)c1cccc(Nc2c([N+](=O)[O-])cc([N+](=O)[O-])cc2[N+](=O)[O-])c1,inactive: 6.77%
15,Cc1ccc(C)c(NP(C)(=O)Oc2ccccc2)c1 (stereo not drawn),inactive: -0.155%
16,Cc1cc(C)cc(OP(C)(=O)Nc2ccccn2)c1 (stereo not drawn),inactive: -0.136%
17,COc1ccccc1OP(C)(=O)Nc1cccc(Br)c1 (stereo not drawn),inactive: -0.241%
18,Cc1cc(C)cc(OP(C)(=O)Nc2ccc(C)cc2C)c1 (stereo not drawn),inactive: 0.0135%
19,O=[N+]([O-])c1cc([N+](=O)[O-])c(-c2cnn(-c3ccccc3)c2)c([N+](=O)[O-])c1,inactive: -0.24%
20,Cc1nc2ccc3ccccc3c2s1.O=[N+]([O-])c1cc([N+](=O)[O-])c(O)c([N+](=O)[O-])c1,inactive: -0.035%
21,O=[N+]([O-])c1cc([N+](=O)[O-])c(-n2nnc3ccccc32)c([N+](=O)[O-])c1,inactive: -2.01%
22,CN(Cc1cccnc1)C(=O)COc1ccc(Cl)c(Cl)c1.O=[N+]([O-])c1cc([N+](=O)[O-])c(O)c([N+](=O)[O-])c1,inactive: 2.86%

row,Structure (SMILES),inhibition
1,COc1ccccc1OP(C)(=O)Nc1c(C)cccc1C (stereo not drawn),inactive: 2.25%
2,CCCOc1ccc(NP(C)(=O)Oc2ccc(Cl)cc2)cc1 (stereo not drawn),inactive: 1.57%
3,CCOC(=O)C(CC)C1=NC(C)(C)Cc2ccccc21.O=[N+]([O-])c1cc([N+](=O)[O-])c(O)c([N+](=O)[O-])c1 (stereo not drawn),inactive: -2.08%
4,CC1=C2N=C(C=C3N=C(C(C)=C4[N-][C@@](C)([C@@H]5N=C1[C@](C)(CCC(=O)NC[C@@H](C)OP(=O)([O-])O[C@H]1[C@@H](O)[C@@H](n6cnc7cc(C)c(C)cc76)O[C@@H]1CO)[C@H]5CC(N)=O)[C@@](C)(CC(N)=O)[C@@H]4CCC(N)=O)[C@@](C)(CC(N)=O)[C@@H]3CCC(N)=O)C(C)(C)[C@@H]2CCC(N)=O.[C-]#N.[Co+3],inactive: 2.89%
5,O=[N+]([O-])c1cc([N+](=O)[O-])c(Nc2nnnn2CCO)c([N+](=O)[O-])c1,inactive: 0.85%
6,CP(=S)(Nn1cnnc1)Oc1ccccc1 (stereo not drawn),inactive: 2.78%
7,CCOC(=O)c1ccc(NP(C)(=O)Oc2ccc(OC)cc2)cc1 (stereo not drawn),inactive: 2.96%
8,O=[N+]([O-])c1cc([N+](=O)[O-])c(O)c([N+](=O)[O-])c1.c1ccc(Oc2ccncc2)cc1,inactive: 2.08%
9,CCOP(C)(=S)SCC(=O)NC(C)C(=O)O (stereo not drawn),inactive: -2.58%
10,CP(=O)(Nc1ccccn1)Oc1ccc(Cl)cc1 (stereo not drawn),inactive: -2.45%
11,CP(=O)(Oc1ccccc1)OC(c1ccccc1)C(F)(F)F (stereo not drawn),inactive: -1.61%
12,Cc1cccc(C)c1OP(C)(=O)Nc1ccc(SC(F)(F)F)cc1 (stereo not drawn),inactive: -1.94%
13,Cc1ccc(Nc2c([N+](=O)[O-])cc([N+](=O)[O-])cc2[N+](=O)[O-])cc1,inactive: -0.689%
14,CP(=O)(Nc1ccc(SC(F)(F)F)cc1)Oc1ccc(Cl)cc1 (stereo not drawn),inactive: 1.77%
15,CCc1ccc(OP(C)(=O)N2CCN(c3ccc([N+](=O)[O-])cc3)CC2)cc1 (stereo not drawn),inactive: 1.75%
16,Cc1ccc(NP(C)(=O)Oc2ccccc2)c(C)c1 (stereo not drawn),inactive: -2.49%
17,COc1ccccc1OP(C)(=O)Nc1ccc(C)cc1 (stereo not drawn),inactive: -1.83%
18,CCOC(=O)c1ccc(NP(C)(=O)Oc2ccccc2)cc1 (stereo not drawn),inactive: 0.134%
19,Cc1cc(C)cc(OP(C)(N)=O)c1 (stereo not drawn),inactive: -2.09%
20,COc1ccc(OP(C)(=O)Nc2cccc(F)c2)cc1 (stereo not drawn),inactive: -1.91%
21,O=[N+]([O-])c1cc([N+](=O)[O-])c(Nc2cccnc2)c([N+](=O)[O-])c1,inactive: 2.21%
